Results of unrelated studies side by side (data: NIAID ChemDB).

All rows: whole-cell or culture tests; organism: Candida albicans; endpoint: MIC

Conditions beyond the fields shown may differ between rows. An empty or dashed field is not shown.

smiles | strain or isolate | value
CCN(CC)CCCC(C)=CCC/C(C)=C/CCC=C(C)CC/C=C(\C)CCCN(CC)CC | S124 | 25 µg/mL
C[C@@H](n1ccnn1)[C@](O)(Cn1cncn1)c1ccc(F)cc1F | TA | 100 µg/mL
C[C@H]1O[C@@H](OC[C@H]2CC[C@@](C)(C=O)[C@]2(C)C(=O)O)C[C@@H]2OC(C)(C)O[C@@H]21 | 2005E | 84 µM
CC(n1ccnn1)C(O)(Cn1cncn1)c1ccc(C(F)(F)F)cc1 | TA | >100 µg/mL
C(/C=C/c1ccccc1)=Nc1cccc(CN2CCOCC2)c1 | CDC385 | 50 µg/mL
C[C@@]1(C=O)CC[C@H](COC(=O)c2ccccc2)[C@@]1(C)C(=O)O | 2005E | 102 µM
CC(n1nccn1)C(O)(Cn1cncn1)c1ccc(OC(F)(F)F)cc1 | TA | >100 µg/mL
OC(Cn1cncn1)(Cn1cncn1)c1ccc(F)cc1F | TIMM1768 | 100 µg/mL
CC[N+](C)(CC)CCCC(C)CCCC(C)CCCCC(C)CCCC(C)CCC[N+](C)(CC)CC | S9 | 50 µg/mL
CN1CCN(Cc2ccc(N=C/C=C/c3ccccc3)cc2)CC1 | CDC385 | >100 µg/mL
Cc1ccc(/C(=N\OCc2ccccc2)c2oc3ccccc3c2C)cc1 |  | >512 µg/mL
Clc1ccc(CNc2ccccc2Cn2ccnc2)cc1 | CDC385 | 0.18 µg/mL
COc1ccc(/C(=N\OCc2ccc(Cl)cc2)c2oc3ccccc3c2C)cc1 |  | 128 µg/mL
CCCCCOc1ccc(-c2ccc(-c3ccc(C(=O)N[C@H]4C[C@@H](O)[C@@H](OCCN(C)CCCC)NC(=O)[C@@H]5[C@@H](O)[C@@H](C)CN5C(=O)[C@H]([C@H](C)O)NC(=O)[C@H]([C@H](O)[C@@H](O)c5ccc(O)cc5)NC(=O)[C@@H]5C[C@@H](O)CN5C(=O)[C@H]([C@H](C)O)NC4=O)cc3)cc2)cc1 |  | 0.625 µg/mL
CC(n1nccn1)C(O)(Cn1cncn1)c1ccc(C(F)(F)F)cc1 | TA | >100 µg/mL
C(=C\c1ccccc1)/CNc1cccc(Cn2ccnc2)c1 | CDC385 | >100 µg/mL
CC(=O)O/N=C(\c1ccc(C)cc1)c1oc2ccccc2c1C |  | 128 µg/mL
CCOC(=O)c1nc2cc(C(F)(F)F)ccc2nc1Nc1cc(OC)c(OC)c(OC)c1 |  | 500 µg/mL
Cc1c(O)cccc1C(=O)N[C@@H](CSc1ccccc1)[C@H](O)CN1C[C@H]2CCCC[C@H]2C[C@H]1C(=O)NC(C)(C)C | I108 1 | >64 µg/mL
CC[N+](C)(CC)CCCC(C)=CCC/C(C)=C/CCC=C(C)CC/C=C(\C)CCC[N+](C)(CC)CC | S124 | 25 µg/mL
Cc1c(/C(=N\O)c2ccc(Cl)cc2)oc2ccccc12 |  | 4 µg/mL
CC(=O)Oc1cc(Cl)ccc1C(=O)N(C(C)=O)c1ccc(Br)cc1 | ATCC 44859 | 31.25 µg/mL
O=C(Nc1c(F)cccc1F)OCCCN1CCN(c2nc3ccccc3s2)CC1 | CY3003 | 0.83 µg/mL
COCC(=O)OC[C@H]1CC[C@@](C)(C=O)[C@]1(C)C(=O)O | 2005E | 459 µM
CC(n1nccn1)C(O)(Cn1cncn1)c1ccc(Cl)cc1 | TA | 50 µg/mL
C(/C=C/c1ccccc1)=Nc1ccc(CN2CCOCC2)cc1 | CDC385 | >100 µg/mL
COc1cc(NC(C)CCCN)c2nc(C(C)(C)C)ccc2c1Oc1cccc(C(F)(F)F)c1 |  | >20 µg/mL
CC(=O)Oc1c(Cl)cccc1C(=O)Nc1ccc(C(F)(F)F)cc1 | ATCC 44859 | 15.63 µg/mL
CC[N+]([O-])(CC)CCCC(C)=CCC/C(C)=C/CCC=C(C)CC/C=C(\C)CCC[N+]([O-])(CC)CC | S124 | 200 µg/mL
CC(=O)Oc1cc(Cl)ccc1C(=O)Nc1ccc(Br)cc1 | ATCC 44859 | 15.63 µg/mL
c1ccc(-c2ccc(C(c3ccccc3)n3ccnc3)cc2)cc1 |  | 3.6 µg/mL
CCOC(=O)Cc1csc(NC(=O)CCl)n1 | ATCC 10231 | 156 µg/mL
C[C@@H](n1cnnn1)[C@](O)(Cn1cncn1)c1ccc(F)cc1F | TA | >100 µg/mL
CC(=O)Oc1c(Cl)cccc1C(=O)Nc1ccc(Cl)cc1 | ATCC 44859 | 31.25 µg/mL
CCCCCCCCCCCC[N+](C)(C)[O-] | S124 | 200 µg/mL
COc1ccc(/C(=N\OC(C)=O)c2oc3ccccc3c2C)cc1 |  | 8 µg/mL
CCCCCOc1ccc(-c2ccc(-c3ccc(C(=O)N[C@H]4C[C@@H](O)[C@@H](OCCCCCCN)NC(=O)[C@@H]5[C@@H](O)[C@@H](C)CN5C(=O)[C@H]([C@H](C)O)NC(=O)[C@H]([C@H](O)[C@@H](O)c5ccc(O)cc5)NC(=O)[C@@H]5C[C@@H](O)CN5C(=O)[C@H]([C@H](C)O)NC4=O)cc3)cc2)cc1 |  | 0.312 µg/mL
CN1CCN(Cc2ccccc2NC/C=C/c2ccccc2)CC1 | CDC385 | 100 µg/mL
CC(=O)Oc1c(Cl)cccc1C(=O)Nc1cccc(Cl)c1 | ATCC 44859 | 62.5 µg/mL
CC(n1ncnn1)C(O)(Cn1cncn1)c1ccc(F)cc1F | TA | 12.5 µg/mL

Repeating the first 2 entries:

| smiles | strain or isolate | value |
|---|---|---|
| CCN(CC)CCCC(C)=CCC/C(C)=C/CCC=C(C)CC/C=C(\C)CCCN(CC)CC | S124 | 25 µg/mL |
| C[C@@H](n1ccnn1)[C@](O)(Cn1cncn1)c1ccc(F)cc1F | TA | 100 µg/mL |